The data set deals with the molecule itself. The experiment in a line: split reporter.

B1: HIV-1 Nef (SF2) G2A (myristoylation defective), YFP BiFC fusions (natural protein)
chain: not shown
For B1, the “% decrease in BiFC relative to WT” value was determined as 0%.

Source of the values: publication PMC2783173 (Journal of molecular biology, 2009).
